Assay results as given in patent US20250002563A1, “Broadly neutralizing nanobodies for coronavirus and uses thereof” (UNIVERSITY OF PITTSBURGH OF THE COMMONWEALTH SYSTEM OF …, published 2025).

Legend:
[1] = molecular target: spike of SARS-CoV-2 Delta strain (authentic virus) (SARS-CoV-2); assay: cell-based or functional assay
[2] = molecular target: RBDRmYN02-CoV (RmYN02-CoV S protein residues 298-503, C-terminal His-tag) (RmYN02-CoV); assay: ELISA
[3] = molecular target: T1, RBDBM-4831-CoV (BM-4831-CoV S protein residues 310-530, C-terminal His-tag) (BM-4831-CoV); assay: ELISA
T1 construct: range 310-530

| Binder | PRNT SARS-CoV-2 Delta IC50 [1] [nM] | IC50 [2] [nM] | IC50 [3] [nM] |
| --- | --- | --- | --- |
| 5p-182 (VHH, class I psNb) VHH: EVQLVESGGGLVQTGGSLRLSCALSGYTFSIFPTAWFRQAPGKEREFVAGIRWNGSTRDYTEYADFVKGRFTISRDNAKNMVYLQMISLKPEDTALYYCAASDGVIDGTNANAYRYWGQGTQVTVSS | 0.31 |  |  |
| 4P-42 (VHH) VHH: HVQLVESGGGLVQAGGSLRLSCAASGRTFSRYAAGWFRQAPGKEREFVAVIEWDGDNAYYADSVKGRFTISRDNAKNTVYLQMNRLKPEDTAVYICAVGGNHYSPNKYYTADEYDYWGQGTQVTVSS |  | < 10 |  |
| 4P-71 (VHH) VHH: HVQLVESGGGLVQAGGSLRLSCAASGRTFSRFAAGWFRQAPGKEREFVAVIDWNGGSAYYADSVKGRFTISRDNAKNTVYLQMNRLKPGDTAVYICAIGGNHYDPSRYYTADEYDYWGQGTQVTVSS |  | < 10 |  |
| 5p-34 (VHH) VHH: QVQLVESGGGLVQAGGSLRLSCTASGRTFSRYAAGWFRQAPGKEREFVAVIEWNGDSAYYTDSAKGRFTISRDNTKNTVYLQMNRLKPEDTAVYICAIGGNHYSPSKYYIADEYDYWGQGTQVTVSS |  | < 10 |  |
| 5p-35 (VHH, class II(B) psNb) VHH: HVQLVESGGGLVQAGGSLRLSCAASGRTFSRYAAGWFRQAPGKEREFVAVIEWDGDSAYYADPVKGRFTISRDNAKNTVYLQMNRLKPEDTAVYICAVGGNHYSRSKYYNLDEYDDWGQGTQVTVSS | 21 | < 10 |  |
| 5p-117 (VHH) VHH: DVQLVESGGGLVQAGESLRLSCAASGRTFRNFAAGWFRQTPGKDREFVAVIEYNGDSAYYADSVKGRFTISRDNAKNTVYLQMNRLKPGDTAVYICAIGGNHYDPSKYYIADEYDYWGQGTQVTVSS |  | < 10 |  |
| 5p-119 (VHH) VHH: QVQLVESGGGLVQAGGSLRLSCAASRRTFSNYAAGWFRQAPGKEREFVAVIEWNGESAYYADSVKGRFTISRDNAKNTVYLQMNRLKPEDTAIYICAIGGNHYSRSKYYIADEYDYWGQGTQVTVSS |  | < 10 |  |
| 5p-120 (VHH) VHH: HVQLVESGGGLVQAGGSLRLSCAASGRTFSRYAAGWFRQAPGKEREFVAVIEWDGDSAYYADSVKGRFTISRDNAKNTVYLQMNRLKPEDTAVYICAVGGNHYSRSKYYNLDEYDYWGQGTQVTVSS |  | < 10 |  |
| 5p-121 (VHH) VHH: DVQLVESGGGLVQAGGSLRLSCAASGRTFSRYAAGWFRQAPGKERSFVAVIEWDGDTAYYSDSVKGRFTISRDNAKNTLYLQMNRLKPEDTAVYICAVGGNHYSSSKYYIADEYDYWGQGTQVTVSS |  | < 10 |  |
| 5p-38 (VHH, class II(B) psNb) VHH: QVQLVESGGGLVQAGGSLRLSCAAAARFSTSAMGWFRQAPGKEREFVAAISWSNTNTHYADTVKGRFTISADTAKETVDLQMNSLKPEDTAVYYCVQGGWGIRQPIIVDYWGKGTQVTVSS | 34.7 | < 10 |  |
| 5p-59 (VHH) VHH: QVQLVESGGGLVQAGGSLRLSCAVSGRTISTFGMAWFRQAPGKVREFVATITRDEDLTLYADSVKGRFTISRDTAKNTVFLQMNSLKIEDTALYYCAVRRDDSWGYSRQSIEYDYWGQGTQVTVSS |  | < 10 |  |
| 5p-60 (VHH, class II(A) psNb) VHH: QVQLVESGGGLVQAGGSLRLSCAVSGRTISTFGMGWFRQAPGKEREFVATITRDEDMLLYADSVKGRFTISRDTAKNMVFLQMNSLKIEDTALYYCAVRRDSSWGYSRQSTEYDYWGQGTQVTVSS | 8.74 | 10 |  |
| 5p-118 (VHH, class II(B) psNb) VHH: QVQLVESGGGLVQAGESLRLSCAASKPTFRNFAAGWFRQTPGKDREFVAVIEYDGDSAYYADSVKGRFTISRDNAKNTVYLQMNRLKPGDTAVYICAIGGNHYDPSKYYTADEYDYWGQGTQVTVSS | 3.62 | < 10 | < 10 |
| 5p-78 (VHH) VHH: HVQLVESGGGLVQAGGSLRLSCAAAARFSTSAMGWFRQAPGKEREFVAAVSWSNTNIHYADTVKGRFTISADTAKETVYLQMNSLKPDDTAVYYCAQGGWGLTQPIIVDYWGKGTQVTVSS |  | < 10 |  |
| 4P-47 (VHH) VHH: HVQLVESGGGLVQAGGSLRLSCAADARFSTSAMGWFRQAPGKEREFVAAISWSGANTHYADTVKGRFTISTDTAKNTVYLQMNSLKPEDTAVYYCAQGGWGITQPISVDYWGKGTQVTVSS |  | < 10 |  |
| 5p-124 (VHH) VHH: HVQLVESGGGLVQAGDSLRLSCAASRIFSTSAMGWFRQAPGKEREFVAAISWSGGNVHYLDSVKGRFAISADNSKSTVFLQMNSLKPEDTAVYYCAQGGWGIRQVIEVDYWGKGTQVTVSS |  | 10 |  |
| 5p-125 (VHH) VHH: HVQLVESGGGLVQAGDSLRLSCAASRIFSTSAMGWFRQAPGKEREFVAAISWSGTNTHYADPVKGRFAISTDNAKNTVYLQMNSLKPEDTAVYYCAQGGWGLRQPIEVDYWGKGTQVTVSS |  | < 10 |  |
| 5p-126 (VHH) VHH: QVQLVESGGGLVQAGGSLRLSCAAAARFSTSAMGWFRQAPGKEREFVAAVSWSNTNTHYADTVKGRFTISADTAKETVYLQMNSLKPEDTAVYYCAQGGWGLTQPIIVDYWGKGTQVTVSS |  | < 10 |  |
| 5p-132 (VHH, class IV psNb) VHH: QVQLVESGGGLVQAGGSLRLSCTASGYDFSILAIAWYRQAPGKERELVAAISRVGSTDYADSVKGRFTISRDNTKNTVSLQMDSLKPEDTAVYYCNAGIPMTTVLSGLGFWGQGTQVTVSS |  | < 10 | < 10 |
| 4P-17 (VHH) VHH: HVQLVESGGGLVQAGASLRLSCAASGRTASNYVMGWFRQAAGKEREFVAHISWSGDETNYADSVRGRFIISRDNAENTVYLQMNSLKPEDTAVYYCAADRGYSLMYYSSREYTYWGQGTQVTVSS |  | < 10 |  |
| 4P-56 (VHH, class IV psNb) VHH: QVQLVESGGGLVQAGGSLRLSCAASGRTDSISDMGWFRQAPGKEREFVAVVGWSGGGTDYAHSVKGRFTISRDNAKNTVYLQMNSLKPEDTAVYYCAVGSLRVGSFSVEYWGQGTQVTVSS |  | < 10 | < 10 |
| R113 (VHH) VHH: HVQLVESGGGLVQPGGSLRLSCAASGRSFNSYLMGWFRQAPGKEREFVAWISGSPHDIIRYRDSVKDRFTISRDNAKNTVYLQMNSLKPVDTAVYYCAVGSLRVGSFSPDYWGQGTQVTVSS |  | < 10 | < 10 |
| R37 (VHH) VHH: QVQLVESGGGLVQTGGSLRLSCAASGRTFSNYVMGWFRQAPGKEREFVSSIEWNSENTFYANSVKGRFTISRDNAKNTVYLQMNSLKAEDTAVYYCAADRGSSYYYTRASEYTYWGQGTQVTVSS |  | < 10 |  |
